Results deposited as PubChem BioAssay AID504761 (Drosophila RNAi Screening Center, 2011).
The deposit covers about 22,000 reagents; below is a random part of those with a known target gene and a result. In the full data, 116 (0.52%) were called active. 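Calls depend on retest data that are not deposited; infection was ranked per plate without normalising between plates; the unit of the infection score is not given.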 The raw values are shown without normalisation. A number with no mark means an inactive call. A plus sign joins genes that one reagent is predicted to hit. Further read-outs or replicates are left out here. Reagent sequences are not shown. Not stated in the record: the amount of reagent, the time to read-out.

Purpose: 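Genome-wide fly cell screen for genes dengue virus requires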 (primary screen)
Cells: D.Mel-2 cells from Drosophila
Knock-down reagent: long dsRNA against Drosophila genes
Challenge: infection with dengue virus type 2; dose and infection time not stated
Detection: 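Cells stained for dengue envelope protein and imaged; percent of infected cells per well on duplicate plates, ranked by infection, with stained nuclei counted for cell number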
Reading the numbers: infection score: higher = more virus-infected cells; cell count: higher = more cells in the well
Rule for the call: 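Very low infection ranking in both replicate wells (chance probability at most 0.065), then a retest showing infection dropped 1.5-fold or more at p below 0.05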
Calls: active = confirmed: knock-down lowers infection; inactive = not picked or not confirmed

| predicted target | PubChem SID | infection score, replicate 1 | infection score, replicate 2 | cell count, replicate 1 |
| --- | --- | --- | --- | --- |
| CG31882 (GeneID 319000) | SID104180876 | 6.38 | 0.53 | 4888 |
| CG10631 (GeneID 35262) | SID104181873 | 14.2 | 4.57 | 6408 |
| cas (GeneID 44018) | SID104192165 | 2.29 | 4.58 | 6190 |
| cas (GeneID 44018) | SID104203439 | 7.55 | 10.5 | 5895 |
| Kap-alpha1 (GeneID 40160) | SID104191148 | 6.28 | 10.1 | 6494 |
| Lectin-galC1 (GeneID 35216) | SID104183154 | 8.43 | – | 6130 |
| CG2147 (GeneID 31759) | SID104198003 | 3.31 | 1.98 | 6202 |
| Arp6 (GeneID 32514) | SID104199118 | 1.92 | 3.76 | 6572 |
| CG11899 (GeneID 46391) | SID104196448 | 0.96 | 9.24 | 7007 |
| t-cup (GeneID 318986) | SID104181046 | 4.72 | 3.59 | 6042 |
| t-cup (GeneID 318986) | SID104206058 | 7.9 | 3.44 | 6871 |
| l(2)k05819 (GeneID 33644) | SID104180618 | 10.8 | 10.9 | 6334 |
| Paf-AHalpha (GeneID 32529) | SID104200059 | 3.83 | 4.29 | 5620 |
| CG13692 (GeneID 33216) | SID104180153 | 8.76 | 5.21 | 7132 |
| CG13692 (GeneID 33216) | SID104207129 | – | – | 401 |
| phyl (GeneID 36606) | SID104187455 | 2.44 (active) | 2.16 | 6553 |
| phyl (GeneID 36606) | SID104203423 | 4.71 | 9.98 | 5732 |
| CG44433 (GeneID 37150) | SID104186309 | 3.52 | 0.79 | 6193 |
| CG44433 (GeneID 37150) | SID104186310 | 0.57 | 2.8 | 6130 |
| CG44433 (GeneID 37150) | SID104205115 | 4.9 | 7 | 5793 |
| CG6254 (GeneID 41244) | SID104195794 | 8.39 | 6.66 | 3800 |
| Vinc (GeneID 31201) | SID104198520 | 14.7 | 2.03 | 1543 |
| lectin-21Cb (GeneID 33242) | SID104180147 | 2.42 | 2.74 | 6316 |
| RpL12 (GeneID 45329) | SID104184136 | 6.69 | – | 1660 |
| CG5023 (GeneID 42400) | SID104195489 | 9.8 | 6.47 | 3581 |
| GATAe (GeneID 41945) | SID104202566 | 4.52 | 21.2 | 6545 |
| CG14624 (GeneID 31068) | SID104198426 | 0.47 | 3.73 | 6170 |
| CG14624 (GeneID 31068) | SID104203799 | 5.01 | 6.08 | 6387 |
| CG8138 (GeneID 41619) | SID104196178 | 10.2 | 5.07 | 6312 |
| stw (GeneID 35494) | SID104184634 | 8.41 | 4.88 | 6182 |
| stw (GeneID 35494) | SID104184635 | 3.02 | 10.3 | 6625 |
| stw (GeneID 35494) | SID104201970 | 2.55 | 2.05 | 6285 |
| stw (GeneID 35494) | SID104204562 | 15.5 | 4.76 | 5712 |
| Ctf4 (GeneID 36551) | SID104186172 | 8.34 | 7.63 | 5273 |
| SecCl (GeneID 39949) | SID104190679 | 11.5 | 25.8 | 5255 |
| RpS3A (GeneID 43768) | SID104196960 | – | – | 275 |
| CG17734 (GeneID 41359) | SID104195048 | 3.95 | 15.5 | 6679 |
| CG17734 (GeneID 41359) | SID104207754 | 11.3 | 20 | 3308 |
| JMJD4 (GeneID 35089) | SID104182817 | 8.07 | 14.9 | 6281 |
| JMJD4 (GeneID 35089) | SID104203914 | 3.61 | 3.9 | 6738 |
| mirr (GeneID 39441) | SID104191161 | 0.7 | 2.69 | 5723 |
| mirr (GeneID 39441) | SID104203996 | 3.87 | 4.86 | 6001 |
| CG1598 (GeneID 35690) | SID104186390 | 8.89 | 0.56 | 7066 |
| Rpt2 (GeneID 42828) | SID104196591 | 9.69 | 4.33 | 1114 |
| Rpt2 (GeneID 42828) | SID104203558 | 1.61 | 1.7 | 1548 |
| CG10512 (GeneID 40339) | SID104191407 | 3.99 | 4.67 | 6665 |
| CG10512 (GeneID 40339) | SID104206458 | 9.55 | 13.6 | 6335 |
| cactin (GeneID 33043) | SID104200368 | 2.87 | 3.17 | 2958 |
| HIP + HIP-R | SID104198037 | 1.53 | 2.4 | 6134 |
| HIP + HIP-R | SID104206456 | 4.99 | 8.17 | 7054 |
| dati (GeneID 43789) | SID104196920 | 2.02 | 5.74 | 6076 |
| dati (GeneID 43789) | SID104196945 | 11.2 | 13.6 | 3565 |
| dati (GeneID 43789) | SID104203953 | 17.7 | 18.5 | 6145 |
| Ets21C (GeneID 33229) | SID104180543 | 28.4 | 30.4 | 6580 |
| Prip (GeneID 36237) | SID104186836 | 10.8 | 21.5 | 3731 |
| Prip (GeneID 36237) | SID104205003 | 3.22 | 2.98 | 6529 |
| CG17508 (GeneID 49893) | SID104187563 | 2.75 | 1.17 | 6119 |
| Ubc2 (GeneID 34487) | SID104180929 | 5.39 | 6.18 | 6453 |
| Ubc2 (GeneID 34487) | SID104183260 | 1.1 | 3.32 | 6755 |
| Ubc2 (GeneID 34487) | SID104207606 | 15.6 | – | 4971 |

Laid out differently: results already given.
CG13692 (GeneID 33216) [SID104207129] → cell count, replicate 1 = 401
phyl (GeneID 36606) [SID104187455] → infection score, replicate 1 = 2.44 (active); infection score, replicate 2 = 2.16; cell count, replicate 1 = 6553
phyl (GeneID 36606) [SID104203423] → infection score, replicate 1 = 4.71; infection score, replicate 2 = 9.98; cell count, replicate 1 = 5732
